Compound potency records, mixed from different reports. Data source: NIAID ChemDB in PubChem.

All rows: whole-cell or culture tests; organism: Herpes simplex virus 1

ECn: concentration that inhibits the pathogen or its effect by n%. Percent inhibition refers to the dose given; in toxicity tests it is the harm to the cells. An empty or dashed field is not shown. Rows are shuffled and stem from different studies.

smiles | strain or isolate | cells | method | endpoint | dose | value
CCc1cn([C@H]2C[C@H](O)[C@@H](CO)O2)c(=O)[nH]c1=O | WT-34 | - | - | MIC | - | 3.2 µg/mL
O=c1[nH]c(=O)n([C@H]2C[C@H](O)[C@@H](CO)O2)cc1/C=C/C(F)(F)F | KOS | PRK | virus yield | EC99 | - | 0.03 µg/mL
CCc1cn([C@@H]2O[C@H](CO)[C@@H](O)[C@@H]2O)c(=O)[nH]c1=O | WT-34 | - | - | MIC | - | 3.2 µg/mL
Nc1nc2c(ncn2CC[C@@H](O)CO)c(=O)[nH]1 | KJ502 | VERO | plaque count | EC50 | - | 7 µM
N=c1ncn(Cc2cccc([N+](=O)[O-])c2)c2nc[nH]c12 | - | BSC-1 | plaque count | inhibition | 25 µg/mL | 0%
C/C=C/c1cn([C@H]2C[C@H](O)[C@@H](CO)O2)c(=O)[nH]c1=O | C42 | VERO | plaque count | inhibition | 10 µM | 91%
Nc1ncnc2c1ncn2[C@@H]1O[C@H](CO)[C@@H](O)[C@@H]1O | F | HL | virus yield | inhibition | 1 µg/mL | 71%
O=c1[nH]c(=O)n([C@H]2C[C@H](O)[C@@H](CO)O2)cc1I | KOS | PRK | virus yield | EC99 | - | 0.1 µg/mL
Cc1c(NC(=O)OC(C)(C)C)ccc2nc(N(C)CCC(=O)NCCc3ccncc3)oc(=O)c12 | - | VERO | plaque count | EC90 | - | >12.5 µM
Nc1nc2c(ncn2C/C=C\CO)c(=O)[nH]1 | KJ502 | VERO | plaque count | EC50 | - | 1 µM
Cc1c(NC(=O)c2ccccc2C(F)(F)F)ccc2nc(NC(C)(C)C(=O)N(C)CCc3ccccn3)oc(=O)c12 | - | VERO | plaque count | EC90 | - | >12.5 µM
CCCn1cnc(=N)c2[nH]cnc21 | - | BSC-1 | plaque count | inhibition | 25 µg/mL | 0%
Cc1c(NC(=O)c2ccccc2[N+](=O)[O-])ccc2nc(NC(C)(C)C(=O)N(C)CCc3ccccn3)oc(=O)c12 | - | VERO | plaque count | EC90 | - | >12.5 µM
O=c1ccn([C@@H]2O[C@H](CO)[C@@H](O)[C@H]2O)c(=O)[nH]1 | VR-3 | - | - | MIC | - | 100 µg/mL
Nc1ncnc2c1ncn2[C@@H]1O[C@H](CO)[C@@H](O)[C@@H]1O | PFA-resistant | RK-13 | plaque count | EC50 | - | 30 µM
O=C(NCc1ccc(Cl)cc1)c1cn2c3c(cc(CN4CCOCC4)cc3c1=O)OC(c1cccnc1)C2 | HL-3 | HFF | plaque count | EC50 | - | 9.7 µM
Nc1ncnc2c1ncn2[C@@H]1C[C@H](CO)[C@@H](O)[C@@H]1O | WT-34 | - | - | MIC | - | 10 µg/mL
Nc1nc2c(ncn2COC(CO)CO)c(=O)[nH]1 | KOS | WI-38 | plaque count | inhibition | 2 µM | 90%
O=c1[nH]c(=O)n([C@H]2C[C@H](O)[C@@H](CO)O2)cc1I | FRAN | - | - | MIC | - | 2.2 µg/mL
Cc1c(NC(=O)OC(C)(C)C)ccc2nc(N(CCc3ccccc3)C(=O)N(C)CCc3ccncc3)oc(=O)c12 | - | VERO | plaque count | EC90 | - | <3.2 µM
Cc1ccccc1Cn1cnc(=N)c2[nH]cnc21 | - | BSC-1 | plaque count | inhibition | 50 µg/mL | 30%
Cc1c(NC(=O)CCNC(=O)OC(C)(C)C)ccc2nc(NC(C)(C)C(=O)N(C)CCc3ccccn3)oc(=O)c12 | - | VERO | plaque count | EC90 | - | >12.5 µM
Cn1cc(C(=O)NCc2ccc(Cl)cc2)c(=O)c2cc(CN3CCOCC3)ccc21 | DM2.1 (ACV-resistant) | HFF | plaque count | EC50 | - | 1.9 µM
Cc1ccccc1C(=O)Nc1ccc2nc(NC(C)(C)C(=O)N(C)CCc3ccccn3)oc(=O)c2c1C | - | VERO | plaque count | EC90 | - | >12.5 µM
Cc1cn([C@H]2C[C@H](O)[C@@H](CO)O2)c(=O)[nH]c1=O | C42 | VERO | plaque count | inhibition | 10 µM | 12%

For reference, 2 entries again:

smiles	strain or isolate	cells	method	endpoint	dose	value
CCc1cn([C@@H]2O[C@H](CO)[C@@H](O)[C@@H]2O)c(=O)[nH]c1=O	WT-34	-	-	MIC	-	3.2 µg/mL
Nc1nc2c(ncn2COC(CO)CO)c(=O)[nH]1	KOS	WI-38	plaque count	inhibition	2 µM	90%